# Source: patent publication US5968513A (priority 1996, dated 1999)
# “And” between values parts separate entries of the source, which are not always exact repeats. Equal entries are not always repeated.
# Tested on: HIV-1
substance,measurement,setting,value
Human Chorionic Gonadotropin [hCG],effectiveness of weekly hCG therapy in humans,"at least 15,000 I.U. and up to 45,000 I.U. weekly",effective
same,Weight gain,individual patients,0 kg
same,decrease in viral load,individual patients (PH-VE NASBA; PG-1; PH-DP TCID),1.5 log and 1 log and 2 log
same,"Viral Load Rx (post treatment with hCG), Roche Amplicor","individual patients, Roche Amplicor, lower detection limit 200 copies","4,900,000 copies"
same,rise of CD4^+ T cell levels,"patient PG-4, no other antiviral therapy, from 47 mm^3 to 424 mm^3",10 fold
same,CD4^+ T cells after Ritonavir added to hCG,"patient PH-SPBE, Ritonavir added at 22 weeks",over 300 mm^3
"Pregnyl: commercial hCG preparation Pregnyl, Organon","Viral Load Rx (post treatment with hCG), TCID","patient PH-DP, 1 mo, TCID assay, PreRx 100",1
"hCG (APL): commercially available partially purified hCG preparation APL, Wyeth Ayerst",toxicity / tolerability in patients,hCG therapy of HIV-infected patients,exacerbation of preexisting cholestasis
